Results on one molecule are retold here after publication PMC9646764 (2022).

The term Kd denotes the equilibrium constant for the complex coming apart. The low end stands for tighter binding, the high end for weaker binding. Usually koff stands for the rate constant with which the complex falls apart. High values mean a short-lived complex, low ones a long-lived complex.

Experiment [1] concerns the target T1, Cattle TFPI-Fc (cattle, UniProt A0A3Q1NLA0 25-208).
T1 chain: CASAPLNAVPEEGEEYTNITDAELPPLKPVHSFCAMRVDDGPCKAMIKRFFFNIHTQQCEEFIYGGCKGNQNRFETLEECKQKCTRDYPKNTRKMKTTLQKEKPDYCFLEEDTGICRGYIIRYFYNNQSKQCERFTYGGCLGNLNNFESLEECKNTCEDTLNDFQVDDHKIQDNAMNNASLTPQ

For experiment [2], the target named is T2, Dog TFPI-Fc (dog, UniProt A0A8I3P810 29-209).
T2 chain: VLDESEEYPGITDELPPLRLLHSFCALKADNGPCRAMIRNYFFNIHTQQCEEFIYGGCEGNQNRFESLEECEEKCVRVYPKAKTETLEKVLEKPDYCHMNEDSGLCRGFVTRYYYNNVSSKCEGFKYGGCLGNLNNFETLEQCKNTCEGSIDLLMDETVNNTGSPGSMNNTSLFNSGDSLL

Experiment [3] has as its target T1, Cattle TFPI-Fc.
Experiment [4] deals with T2, Dog TFPI-Fc.

B1: TcdB4.2_(1286-1805) (domain or fragment)
chain: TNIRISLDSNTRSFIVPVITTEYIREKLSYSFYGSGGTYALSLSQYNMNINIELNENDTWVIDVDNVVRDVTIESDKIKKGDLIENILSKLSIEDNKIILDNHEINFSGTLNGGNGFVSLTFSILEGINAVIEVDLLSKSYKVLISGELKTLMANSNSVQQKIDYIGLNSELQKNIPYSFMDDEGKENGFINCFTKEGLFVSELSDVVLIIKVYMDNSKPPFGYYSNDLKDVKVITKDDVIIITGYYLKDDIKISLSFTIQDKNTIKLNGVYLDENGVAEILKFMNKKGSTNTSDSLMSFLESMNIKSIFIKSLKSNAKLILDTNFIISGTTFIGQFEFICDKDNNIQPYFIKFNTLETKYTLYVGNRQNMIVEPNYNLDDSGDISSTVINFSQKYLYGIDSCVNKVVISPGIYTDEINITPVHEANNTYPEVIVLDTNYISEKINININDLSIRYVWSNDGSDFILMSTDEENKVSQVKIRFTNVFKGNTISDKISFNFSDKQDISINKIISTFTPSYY
B1: the Kd with Cattle TFPI-Fc [1] was determined as 0.536 µM; with Dog TFPI-Fc [2] it was 0.0152 µM. Moreover, the values for the koff with Cattle TFPI-Fc [3] and with Dog TFPI-Fc [4] were 0.0138 s⁻¹ and 0.000395 s⁻¹, respectively.
